Measured values from several laboratories, pooled; numbers as filed in NIAID ChemDB.

All rows: tests in culture; organism: HIV-2; endpoint: EC50

ECn: concentration that inhibits the pathogen or its effect by n%.

smiles | strain or isolate | cells | method | value
COc1cc(/C=C/c2nc(NC(=O)Nc3cccc([N+](=O)[O-])c3)c3ccccc3n2)cc(OC)c1OC | ROD | MT-4 | MTT | >1.17 µg/mL
Cc1ccc(C(C)C)c2oc(=O)c(C(=O)/C=C/c3cccc(Oc4ccccc4)c3)c(O)c12 | ROD | MT-4 | virus yield | >9.4 µg/mL
Cc1cn(C2OC(CO[Si](C)(C)C(C)(C)C)C3(OS(=O)(=O)C=C3N)C2O[Si](C)(C)C(C)(C)C)c(=O)n(CCCNC(=O)c2ccc(C(=O)c3ccccc3)cc2)c1=O | ROD | CEM | syncytia | >50 µM
Nc1ncnc2c1ccn2[C@H]1C=C[C@@H](CO)C1 | D194 | PBMC | RT activity | 0.35 µM
CC1=C[C@H](Cn2cnc3c(=O)[nH]c(N)nc32)C[C@@H]1CO | ROD | MT-4 | MTT | >100 µg/mL
Cc1ccc(S(=O)(=O)Sc2nnc(CNC(=O)COc3ccc4ccccc4c3)n2-c2ccccc2)cc1 | ROD | MT-4 | MTT | >12.7 µg/mL
COc1cc(/C=C/c2nc(NC(=S)Nc3cccc([N+](=O)[O-])c3)c3ccccc3n2)cc(OC)c1OC | ROD | MT-4 | MTT | >3.07 µg/mL
Cc1cc2oc(=O)c(C(=O)/C=C/c3cccc(Oc4ccccc4)c3)c(O)c2cc1Cl | ROD | MT-4 | virus yield | >60.4 µg/mL
COc1cc(/C=C/c2nc(NC(=S)Nc3ccccc3Cl)c3ccccc3n2)cc(OC)c1OC | ROD | MT-4 | MTT | >3.85 µg/mL
O=C(c1ccc([N+](=O)[O-])cc1)c1ccc2[nH]c(=O)oc2c1 | ROD | CEM | syncytia | >8 µg/mL
Cc1ccc(C(C)C)c2oc(=O)c(C(=O)/C=C/c3ccc(O)cc3)c(O)c12 | ROD | MT-4 | virus yield | >8.95 µg/mL
Nn1cc(C(=O)O)c(=O)c2ccc(N3CCN(c4cccc(C(F)(F)F)c4)CC3)cc21 | ROD | MT-4 | MTT | >0.69 µM
Nc1nc2c(ccn2[C@H]2C=C[C@@H](CO)C2)c(=O)[nH]1 | D205 | PBMC | RT activity | 9 µM
C=Cn1cc(C(=O)O)c(=O)c2cc(N)c(N3CCN(c4ccccn4)CC3)cc21 | ROD | MT-4 | MTT | 0.038 µM
COc1cc(/C=C/c2nc(NC(=S)Nc3ccccc3)c3ccccc3n2)cc(OC)c1OC | ROD | MT-4 | MTT | >5.66 µg/mL
Cc1ccc(C(C)C)c2oc(=O)c(C(=O)/C=C/c3ccc(N(C)C)cc3)c(O)c12 | ROD | MT-4 | virus yield | >106 µg/mL
CCCCC(=O)c1ccc2c(c1)sc(=O)n2CCN1CCOCC1 | ROD | CEM | syncytia | >8 µg/mL
COc1cc(/C=C/c2nc(NC(=O)Nc3ccc(C)cc3)c3ccccc3n2)cc(OC)c1OC | ROD | MT-4 | MTT | >2.75 µg/mL
Cn1cc(C(=O)O)c(=O)c2cc(N)c(N3CCN(c4ccccn4)CC3)cc21 | ROD | MT-4 | MTT | >0.25 µM
COc1ccc(/C=C/C(=O)c2c(O)c3cc(Cl)c(C)cc3oc2=O)cc1 | ROD | MT-4 | virus yield | >45.6 µg/mL
Cc1c(C(=O)O)c(=O)c2cc(N)c(N3CCN(c4ccccn4)CC3)cc2n1C | ROD | MT-4 | MTT | >177 µM
Cc1cn(C2OC(CO[Si](C)(C)C(C)(C)C)C3(OS(=O)(=O)C=C3N)C2O[Si](C)(C)C(C)(C)C)c(=O)n(CC2CO2)c1=O | ROD | CEM | syncytia | >50 µM
COc1ccccc1NC(=O)Nc1nc(/C=C/c2cc(OC)c(OC)c(OC)c2)nc2ccccc12 | ROD | MT-4 | MTT | >2.03 µg/mL
CCC(=O)c1ccc2c(c1)sc(=O)n2Cc1ccccc1 | ROD | CEM | syncytia | >8 µg/mL
COc1ccc(-n2c(CNC(=O)COc3ccc4ccccc4c3)n[nH]c2=S)cc1 | ROD | MT-4 | MTT | >46.2 µg/mL
O=C(O)C1=CC(=C(c2ccc(O)c(C(=O)O)c2)c2ccc(O)c(C(=O)O)c2)C=C(Cc2ccc(O)c(C(=O)O)c2)C1=O | ROD | MT-4 | cytopathic effect / MTT | 7.1 µg/mL
O=C(c1cccc(F)c1)c1ccc2[nH]c(=O)sc2c1 | ROD | CEM | syncytia | >40 µg/mL
O=C(O)c1cc(Cc2cc(C(c3ccc(O)c(C(=O)O)c3)c3ccc(O)c(C(=O)O)c3)cc(C(=O)O)c2O)ccc1O | ROD | MOLT-4/HUT-78 | syncytia | 7 µg/mL
O=C(c1cccc(Cl)c1)c1ccc2[nH]c(=O)sc2c1 | ROD | CEM | syncytia | >1.6 µg/mL
COc1ccc(NC(=S)NNC(=O)CNC(=O)COc2ccc3ccccc3c2)cc1 | ROD | MT-4 | MTT | >13.2 µg/mL
COc1ccccc1NC(=S)Nc1nc(/C=C/c2cc(OC)c(OC)c(OC)c2)nc2ccccc12 | ROD | MT-4 | MTT | >3.42 µg/mL
O=C(c1cccc(Br)c1)c1ccc2[nH]c(=O)oc2c1 | ROD | CEM | syncytia | >8 µg/mL
O=C(O)c1cc(C(c2ccc(O)c(C(=O)O)c2)c2ccc(O)c(C(=O)O)c2)ccc1O | ROD | MT-4 | cytopathic effect / MTT | 8.3 µg/mL
O=C(COc1ccc2ccccc2c1)NCc1nnc(Nc2ccccc2)s1 | ROD | MT-4 | MTT | >2.92 µg/mL
Cc1cn(C2OC(CO[Si](C)(C)C(C)(C)C)C3(OS(=O)(=O)C=C3N)C2O[Si](C)(C)C(C)(C)C)c(=O)n(CC(=O)N(CCCl)CCCl)c1=O | ROD | MT-4 | trypan blue | >125 µM
O=C(COc1ccc2ccccc2c1)NCc1nnc(Sc2nc3ccccc3[nH]2)n1-c1ccccc1 | ROD | MT-4 | MTT | >2.2 µg/mL
Nc1cc2c(=O)c(C(=O)O)csc2cc1N1CCN(c2ccccn2)CC1 | ROD | MT-4 | MTT | >138 µM
COc1cc(/C=C/c2nc(NC(=S)Nc3ccc([N+](=O)[O-])cc3)c3ccccc3n2)cc(OC)c1OC | ROD | MT-4 | MTT | >3.87 µg/mL
O=C(COc1ccc2ccccc2c1)NCC(=O)NNC(=S)Nc1ccccc1 | ROD | MT-4 | MTT | >69.9 µg/mL
O=C(c1cccc(F)c1)c1ccc2[nH]c(=O)oc2c1 | ROD | CEM | syncytia | >8 µg/mL
O=C(COc1ccc2ccccc2c1)NCc1n[nH]c(=S)n1-c1ccccc1 | ROD | MT-4 | MTT | >20.2 µg/mL
CC1=C[C@H](Cn2cnc3c(NC4CC4)nc(N)nc32)C[C@@H]1CO | ROD | MT-4 | MTT | >100 µg/mL
COc1cc(/C=C/C(=O)c2c(O)c3c(C)ccc(C(C)C)c3oc2=O)ccc1O | ROD | MT-4 | virus yield | >14.2 µg/mL
CCCCC(=O)c1ccc2c(c1)oc(=O)n2CCN1CCCCC1 | ROD | CEM | syncytia | >8 µg/mL
O=C(COc1ccc2ccccc2c1)NCC(=O)NNC(=S)Nc1ccc(Cl)cc1 | ROD | MT-4 | MTT | >11.2 µg/mL

The last 3 rows once more:

smiles,strain or isolate,cells,method,value
COc1cc(/C=C/C(=O)c2c(O)c3c(C)ccc(C(C)C)c3oc2=O)ccc1O,ROD,MT-4,virus yield,>14.2 µg/mL
CCCCC(=O)c1ccc2c(c1)oc(=O)n2CCN1CCCCC1,ROD,CEM,syncytia,>8 µg/mL
O=C(COc1ccc2ccccc2c1)NCC(=O)NNC(=S)Nc1ccc(Cl)cc1,ROD,MT-4,MTT,>11.2 µg/mL

Conditions beyond the fields shown may differ between rows.